Anti-infective test results gathered from many reports (values: NIAID ChemDB through PubChem).

Shared fields: target-level tests

ICn: concentration for n% inhibition.

smiles | protein | measure | species | dose | result
COc1cccc(-c2nc3ccc(-c4nc5cc(C(=O)O)ccc5n4C4CCCCC4)cc3nc2-c2cccc(OC)c2)c1 | NS5B polymerase | inhibition | Hepatitis C virus | 100 µM | 98.18%
O=C(Nc1ccsc1-c1nc(C(=O)O)c(O)c(=O)[nH]1)NC(c1ccccc1)c1ccccc1 | HCV polymerase | IC50 | Hepatitis C virus | - | <25 µM
COc1nc(NCCN2CCOCC2)nc(Nc2ccc3[nH]ncc3c2)n1 | DNA polymerase | inhibition | Hepatitis B virus | 0.01 µg/mL | 30%
CC[C@@H](C=O)NC(=O)[C@@H]1C[C@@H](OCc2ccccc2)CN1C(=O)[C@@H](NC(=O)Cc1ccc(NC(C)=O)cc1)C(C)C | NS3 protease | Ki | Hepatitis C virus | - | >100 µM
O=C(O)c1ccc2c(c1)nc(-c1ccc3nc(-c4ccccc4)cc(Nc4ccccc4)c3c1)n2C1CCCCC1 | NS5B polymerase | inhibition | Hepatitis C virus | 33 µM | 92.47%
O=C(O)c1sc(-c2ccccc2)cc1N(Cc1ccccc1Cl)C(=O)C1CCC1 | NS3 ATPase | IC50 | Hepatitis C virus | - | 5–20 µM
CNC1N=C(OC)N=C(Nc2ccc3cn[nH]c3c2)N1CN | DNA polymerase | inhibition | Hepatitis B virus | 0.01 µg/mL | 16%
O=C(O)c1cnn2c(C3CCCCC3)c(-c3ccc(F)cc3)cnc12 | RNA-dependent RNA polymerase | IC50 | Hepatitis C virus | - | 1–10 µM
O=C(O)c1nc(-c2sccc2NC(=O)C(NC2CCCC2)c2ccccc2)[nH]c(=O)c1O | HCV polymerase | IC50 | Hepatitis C virus | - | <25 µM
C=C(C)Cc1cc(N(C(=O)c2ccc(Cl)cc2Cl)C(C)C)c(C(=O)O)s1 | NS3 ATPase | IC50 | Hepatitis C virus | - | <5 µM
O=C(NCCc1ccccc1)Nc1ccsc1-c1nc(C(=O)O)c(O)c(=O)[nH]1 | HCV polymerase | IC50 | Hepatitis C virus | - | <25 µM
COc1cc(C(=O)O)ccc1NC(=O)C1(NC(=O)c2ccc3c(c2)nc(-c2ccoc2)n3C2CCCCC2)CCCC1 | NS5B polymerase | IC50 | Hepatitis C virus | - | 0.5–5 µM
O=C(NCc1c(Cl)cccc1Oc1ccccc1)Nc1cscc1-c1nc(C(=O)O)c(O)c(=O)[nH]1 | HCV polymerase | IC50 | Hepatitis C virus | - | <25 µM
COc1ccccc1-c1cc(-c2ccccc2)nc2cc(C(=O)O)nn12 | RNA-dependent RNA polymerase | IC50 | Hepatitis C virus | - | >10 µM
COc1nc(Nc2ccc3cn[nH]c3c2)nc(N2CCN(C(=O)c3cccnc3)CC2)n1 | DNA polymerase | inhibition | Hepatitis B virus | 0.1 µg/mL | 23%
COC(=O)c1cc(NC(=O)C2(NC(=O)c3ccc4c(c3)nc(-c3ccoc3)n4C3CCCCC3)CCCC2)cc(C(=O)O)c1 | NS5B polymerase | IC50 | Hepatitis C virus | - | 0.5–5 µM
CNC(=O)c1c(-c2ccc(F)cc2)oc2cc(-c3ccnn3C)c(OC(C)C)cc12 | Nonstructural protein 5B | IC50 | Hepatitis C virus | - | ≤0.5 µM
O=C(O)c1cnn2c(-c3cccc(-c4ccccc4F)c3)ccnc12 | RNA-dependent RNA polymerase | IC50 | Hepatitis C virus | - | >10 µM
O=C(O)c1ccc2c(c1)nc(-c1ccc3nc(-c4ccccc4-c4ccccc4)ccc3c1)n2C1CCCCC1 | NS5B polymerase | inhibition | Hepatitis C virus | 33 µM | 100.1%
O=C(NCc1ccccc1C(F)(F)F)Nc1cscc1-c1nc(C(=O)O)c(O)c(=O)[nH]1 | HCV polymerase | IC50 | Hepatitis C virus | - | <25 µM
CNC(=O)c1c(-c2ccc(F)c(F)c2)oc2ccc(OC)cc12 | Nonstructural protein 5B | IC50 | Hepatitis C virus | - | ≤0.5 µM
O=S(=O)(Nc1cnn2c(C3CCCCC3)c(-c3ccc(OCc4ccccc4)cc3)cnc12)c1ccc(Cl)cc1 | RNA-dependent RNA polymerase | IC50 | Hepatitis C virus | - | >10 µM
COc1nc(NCCc2ccccn2)nc(Nc2ccc3cn[nH]c3c2)n1 | Nonstructural protein 5B | inhibition | Hepatitis C virus | 10 µg/mL | 66%
CCCCC(C(=O)O)C(=O)N[C@H](C(=O)N1C[C@H](OCc2ccccc2)C[C@H]1C(=O)N[C@H](C=O)CC)C(C)C | NS3 protease | Ki | Hepatitis C virus | - | >100 µM
O=C(O)/C=C/c1ccc(NC(=O)C2(NC(=O)c3ccc4c(c3)nc(-c3cccc5c3OCO5)n4C3CCCCC3)CCCC2)cc1 | NS5B polymerase | IC50 | Hepatitis C virus | - | 0.5–5 µM
O=C(O)c1sc(-c2ccccc2)cc1N(Cc1cccc(Cl)c1)C(=O)C1CC1 | NS3 ATPase | IC50 | Hepatitis C virus | - | 5–20 µM
COc1nc(Nc2ccc3[nH]ncc3c2)nc(N2CCCC2)n1 | Nonstructural protein 5B | inhibition | Hepatitis C virus | 1 µg/mL | 40%
O=C(O)c1ccc2c(c1)nc(-c1ccc3nc(-c4cc(F)ccc4-c4ccc(Cl)cc4)ccc3c1)n2C1CCCCC1 | NS5B polymerase | inhibition | Hepatitis C virus | 100 µM | 101%
O=C(O)c1cc2nc(-c3ccc(Cl)cc3Cl)cc(-c3ccc(Cl)cc3Cl)n2n1 | RNA-dependent RNA polymerase | IC50 | Hepatitis C virus | - | 1–10 µM
CNC(=O)c1c(-c2ccc(F)cc2)oc2cc(N(C(C)=O)S(C)(=O)=O)c(OC)cc12 | Nonstructural protein 5B | IC50 | Hepatitis C virus | - | ≤0.5 µM
COc1nc(NCCCN2CCOCC2)nc(Nc2ccc3cn[nH]c3c2)n1 | DNA polymerase | inhibition | Hepatitis B virus | 0.01 µg/mL | 51%
CC(NC(=O)c1ccc2c(c1)nc(-c1ccoc1)n2C1CCCCC1)C(=O)Nc1ccc(C(=O)O)cc1 | NS5B polymerase | IC50 | Hepatitis C virus | - | 0.5–5 µM
O=C(Nc1cscc1-c1nc(C(=O)O)c(O)c(=O)[nH]1)OCc1cccc(Cl)c1 | HCV polymerase | IC50 | Hepatitis C virus | - | <25 µM
Cc1ccc(C(=O)N(C)c2cc(-c3cc(F)cc(F)c3)sc2C(=O)O)cc1 | NS3 ATPase | IC50 | Hepatitis C virus | - | <5 µM
COc1ccc(-c2cnc3c(C(=O)O)cnn3c2C2CCCCC2)cc1OC | RNA-dependent RNA polymerase | IC50 | Hepatitis C virus | - | >10 µM
O=C(O)c1ccc2c(c1)nc(-c1ccc3nc(-c4ccc(Oc5ccccc5)cc4)ccc3c1)n2C1CCCCC1 | NS5B polymerase | inhibition | Hepatitis C virus | 100 µM | 99.57%
COc1nc(Nc2ccc3cn[nH]c3c2)nc(N2CCN(CCO)CC2)n1 | DNA polymerase | inhibition | Hepatitis B virus | 1 µg/mL | 40%
COc1cc(-c2cc(-c3ccc(Cl)cc3)nc3cc(C(=O)O)nn23)ccc1Cl | RNA-dependent RNA polymerase | IC50 | Hepatitis C virus | - | >10 µM
COc1ccc(-c2cnc(OC)nc2OC)c(-c2ccc3cc(-c4nc5cc(C(=O)O)ccc5n4C4CCCCC4)ccc3n2)c1 | NS5B polymerase | inhibition | Hepatitis C virus | 100 µM | 98.3%
O=C(NC1(C(=O)Nc2ccc(-c3ccc(C(=O)O)o3)cc2)CCCC1)c1ccc2c(c1)nc(-c1ccoc1)n2C1CCCCC1 | NS5B polymerase | IC50 | Hepatitis C virus | - | <0.5 µM
O=C(O)c1ccc2c(c1)nc(-c1ccc3nc(-c4cc5cccc(O)c5o4)ccc3c1)n2C1CCCCC1 | NS5B polymerase | inhibition | Hepatitis C virus | 100 µM | 91.45%
Cc1cc(=O)oc2cc(NC(=O)[C@@H](C)NC(=O)c3ccc4c(c3)nc(-c3ccoc3)n4C3CCCCC3)ccc12 | NS5B polymerase | IC50 | Hepatitis C virus | - | 0.5–5 µM
CCC(C=O)NC(=O)C1CC(OCc2ccc3ccccc3c2)CN1C(=O)C(NC(=O)C(NC(=O)c1cnccn1)C(C)C)C(C)C | NS3 protease | Ki | Hepatitis C virus | - | 1–100 µM
CC1CCC(C(=O)N(c2cc(-c3cccc(C(F)(F)F)c3)sc2C(=O)O)C(C)C)CC1 | NS3 ATPase | IC50 | Hepatitis C virus | - | <5 µM
O=C(NCc1ccccc1F)Nc1ccsc1-c1nc(C(=O)O)c(O)c(=O)[nH]1 | HCV polymerase | IC50 | Hepatitis C virus | - | <25 µM
COc1ccc(-c2nc3ccc(-c4nc5cc(C(=O)O)ccc5n4C4CCCCC4)cc3nc2-c2ccc(OC)cc2)cc1 | NS5B polymerase | inhibition | Hepatitis C virus | 33 µM | 97.35%
CC[C@@H](C=O)NC(=O)[C@@H]1C[C@@H](NCc2ccccc2)CN1C(=O)[C@@H](NC(=O)[C@@H](NC(=O)c1cnccn1)C(C)C)C(C)C | NS3 protease | Ki | Hepatitis C virus | - | >100 µM

For reference, 7 entries again:

{"smiles": "O=C(NCc1ccccc1F)Nc1ccsc1-c1nc(C(=O)O)c(O)c(=O)[nH]1", "protein": "HCV polymerase", "measure": "IC50", "species": "Hepatitis C virus", "result": "<25 µM"}
{"smiles": "O=C(Nc1ccsc1-c1nc(C(=O)O)c(O)c(=O)[nH]1)NC(c1ccccc1)c1ccccc1", "protein": "HCV polymerase", "measure": "IC50", "species": "Hepatitis C virus", "result": "<25 µM"}
{"smiles": "COc1ccc(-c2cnc3c(C(=O)O)cnn3c2C2CCCCC2)cc1OC", "protein": "RNA-dependent RNA polymerase", "measure": "IC50", "species": "Hepatitis C virus", "result": ">10 µM"}
{"smiles": "Cc1cc(=O)oc2cc(NC(=O)[C@@H](C)NC(=O)c3ccc4c(c3)nc(-c3ccoc3)n4C3CCCCC3)ccc12", "protein": "NS5B polymerase", "measure": "IC50", "species": "Hepatitis C virus", "result": "0.5–5 µM"}
{"smiles": "COc1cc(C(=O)O)ccc1NC(=O)C1(NC(=O)c2ccc3c(c2)nc(-c2ccoc2)n3C2CCCCC2)CCCC1", "protein": "NS5B polymerase", "measure": "IC50", "species": "Hepatitis C virus", "result": "0.5–5 µM"}
{"smiles": "O=C(O)/C=C/c1ccc(NC(=O)C2(NC(=O)c3ccc4c(c3)nc(-c3cccc5c3OCO5)n4C3CCCCC3)CCCC2)cc1", "protein": "NS5B polymerase", "measure": "IC50", "species": "Hepatitis C virus", "result": "0.5–5 µM"}
{"smiles": "COc1ccc(-c2cnc(OC)nc2OC)c(-c2ccc3cc(-c4nc5cc(C(=O)O)ccc5n4C4CCCCC4)ccc3n2)c1", "protein": "NS5B polymerase", "measure": "inhibition", "species": "Hepatitis C virus", "dose": "100 µM", "result": "98.3%"}

An empty or dashed field is not shown. Percent inhibition refers to the dose given; in toxicity tests it is the harm to the cells. a–b is a range or a potency band. Rows are shuffled and stem from different studies.